Anti-infective test results gathered from many reports (values: NIAID ChemDB through PubChem).

All rows: target-level tests; organism: Hepatitis C virus

Inhibition is in % at the dose shown (toxicity tests: loss of growth or viability).

compound,target,endpoint,dose,value
CN(C(=O)c1ccc(Cl)cc1Br)c1cc(-c2ccccc2)sc1C(=O)O,NS3 ATPase,IC50,-,<5 µM
O=C(O)[C@@H]1CCCN(C(=O)c2cnn3c(C4CCCCC4)c(-c4ccc(F)cc4F)cnc23)C1,RNA-dependent RNA polymerase,IC50,-,>10 µM
CNC(=O)c1c(-c2ccc(F)cc2)oc2cc(-c3ccco3)c(OC(C)C)cc12,Nonstructural protein 5B,IC50,-,≤0.5 µM
O=C(O)c1sc(-c2ccccc2)cc1N(Cc1ccccc1Cl)C(=O)C1CC1,NS3 ATPase,IC50,-,>20 µM
O=C(Nc1ccsc1-c1nc(C(=O)O)c(O)c(=O)[nH]1)OC1Cc2ccccc2C1,HCV polymerase,IC50,-,<25 µM
CCc1cc2c(C(=O)NC)c(-c3ccc(F)cc3)oc2cc1C1CCCN1C(C)=O,Nonstructural protein 5B,IC50,-,≤0.5 µM
c1ccc(COc2cccc(-c3cnc4c(-c5nn[nH]n5)cnn4c3C3CCCCC3)c2)cc1,RNA-dependent RNA polymerase,IC50,-,1–10 µM
C[C@H](NC(=O)Nc1ccsc1-c1nc(C(=O)O)c(O)c(=O)[nH]1)c1ccccc1,HCV polymerase,IC50,-,<25 µM
O=C(O)c1ccc2c(c1)nc(-c1ccc3nc(-c4ccc5c(c4)OCO5)ccc3c1)n2C1CCCCC1,NS5B polymerase,inhibition,33 µM,98.44%
O=C(O)c1sc(-c2ccccc2)cc1N(Cc1ccc([N+](=O)[O-])cc1)C(=O)CC1CCCC1,NS3 ATPase,IC50,-,<5 µM
CCc1ccc(S(=O)(=O)Nc2ccccc2-c2nc(C(=O)O)c(O)c(=O)[nH]2)cc1,HCV polymerase,IC50,-,<100 µM
C[C@@H](O)C(NC(=O)c1ccc2c(c1)nc(-c1ccc3nc(-c4ccccc4)cnc3c1)n2C1CCCCC1)C(=O)O,NS5B polymerase,inhibition,33 µM,78.89%
CC(=O)c1ccc(-c2cc(N(C(=O)c3ccc(Cl)cc3Cl)C(C)C)c(C(=O)O)s2)cc1,NS3 ATPase,IC50,-,<5 µM
COC(=O)[C@H](Cc1c[nH]c2ccccc12)NC(=O)c1cc2nc(-c3ccco3)c(C3CCCCC3)c(=O)n2[nH]1,RNA-dependent RNA polymerase,IC50,-,<1 µM
CNC(=O)c1c(-c2ccc(F)cc2)oc2cc(C(C)=O)c(C)cc12,Nonstructural protein 5B,IC50,-,≤0.5 µM
CCOC(=O)c1cnc2c(c1)nc(-c1ccc3nc(-c4cc(O)ccc4-c4ccc(Cl)cc4)ccc3c1)n2C1CCCCC1,NS5B polymerase,inhibition,33 µM,56.6%
COc1ccccc1NC(=O)Nc1cscc1-c1nc(C(=O)O)c(O)c(=O)[nH]1,HCV polymerase,IC50,-,<25 µM
CNC(=O)c1c(-c2ccc(Cl)s2)oc2ccc(OC)cc12,Nonstructural protein 5B,IC50,-,≤0.5 µM
COc1ccc(-c2cc(Cl)cc(Cl)c2)c(-c2ccc3cc(-c4nc5cc(C(=O)O)ccc5n4C4CCCCC4)ccc3n2)c1,NS5B polymerase,inhibition,33 µM,102%
Cc1ccc(C(=O)N(C)c2cc(-c3ccc(N)cc3)sc2C(=O)O)cc1,NS3 ATPase,IC50,-,5–20 µM
COc1ccc(OC)c(COc2cccc(-c3cnc4c(-c5nn[nH]n5)cnn4c3C3CCCCC3)c2)c1,RNA-dependent RNA polymerase,IC50,-,1–10 µM
O=C(O)c1ccc2c(c1)nc(-c1ccc3ncc(-c4ccccc4)nc3c1)n2C1CCCCC1,NS5B polymerase,inhibition,100 µM,98.95%
CNC(=O)c1c(-c2ccc(F)cc2)oc2cc(N3CCOCC3)c(OCc3cccc(OC)c3)cc12,Nonstructural protein 5B,IC50,-,≤0.5 µM
O=C(NCc1ccccc1-c1ccccc1)Nc1ccccc1-c1nc(C(=O)O)c(O)c(=O)[nH]1,HCV polymerase,IC50,-,<100 µM
O=C(O)c1cc2nc(-c3ccccc3Cl)cc(-c3ccc(Oc4ccccc4)cc3)n2n1,RNA-dependent RNA polymerase,IC50,-,1–10 µM
Cc1ccc(-c2cc(NS(=O)(=O)c3ccc(F)cc3F)c(C(=O)O)s2)cc1,NS3 ATPase,IC50,-,<5 µM
CCNC(=O)c1c(-c2ccc(F)cc2)oc2cc(NS(C)(=O)=O)c(OC(C)C)cc12,Nonstructural protein 5B,IC50,-,≤0.5 µM
O=C(Nc1ccsc1-c1nc(C(=O)O)c(O)c(=O)[nH]1)OCCc1ccccc1Br,HCV polymerase,IC50,-,<25 µM
CCOc1ccc(-c2cc(NS(=O)(=O)c3ccccc3C)c(C(=O)O)s2)cc1,NS3 ATPase,IC50,-,<5 µM
O=C(Nc1cccc(-c2nc(C(=O)O)c(O)c(=O)[nH]2)c1)NC(c1ccccc1)c1ccccc1,HCV polymerase,IC50,-,<100 µM
O=C(NC(Cc1ccccc1)C(=O)O)c1ccc2c(c1)nc(-c1ccc3nc(-c4ccccc4)cnc3c1)n2C1CCCCC1,NS5B polymerase,inhibition,100 µM,96.4%
NC(C(=O)Nc1ccsc1-c1nc(C(=O)O)c(O)c(=O)[nH]1)c1cc(F)cc(F)c1,HCV polymerase,IC50,-,<25 µM
O=C(O)c1sc(-c2ccccc2)cc1N(Cc1ccccc1Cl)C(=O)C1CCCCC1,NS3 ATPase,IC50,-,<5 µM

The last 4 rows once more:

compound,target,endpoint,dose,value
O=C(Nc1cccc(-c2nc(C(=O)O)c(O)c(=O)[nH]2)c1)NC(c1ccccc1)c1ccccc1,HCV polymerase,IC50,-,<100 µM
O=C(NC(Cc1ccccc1)C(=O)O)c1ccc2c(c1)nc(-c1ccc3nc(-c4ccccc4)cnc3c1)n2C1CCCCC1,NS5B polymerase,inhibition,100 µM,96.4%
NC(C(=O)Nc1ccsc1-c1nc(C(=O)O)c(O)c(=O)[nH]1)c1cc(F)cc(F)c1,HCV polymerase,IC50,-,<25 µM
O=C(O)c1sc(-c2ccccc2)cc1N(Cc1ccccc1Cl)C(=O)C1CCCCC1,NS3 ATPase,IC50,-,<5 µM

a–b is a range or a potency band. Rows are shuffled and stem from different studies. Blank or dashed fields: not listed here. ICn is the concentration giving n% inhibition.